# Measured values as given in PMC11879855, “Structural insights into tecovirimat antiviral activity and poxvirus resistance” (2025).
# Columns and labels:
# rVACV^WT = settings: rVACV WT on BSC40 cells with tecovirimat; individual plaques, two replicate columns (Panel C right)
# [1] = tested on: MPXV clade IIb strain MPXV/2022/FR/CMIP; test: MPXV plaque inhibition (neutralization) assay in Vero cells; settings: ratio of IC50 values
smiles,measurement,setting,value
O=C(NN1C(=O)[C@@H]2[C@@H]3C=C[C@@H]([C@H]4C[C@@H]34)[C@@H]2C1=O)c1ccc(C(F)(F)F)cc1,"plaque size, WT + Tecovirimat",rVACV^WT,0
same,"antiviral activity, times better than IMCBH",[1],5
